Reference: publication PMC6728359, “Crystal structure and chemical inhibition of essential schistosome host-interactive virulence factor carbonic anhydrase SmCA” (Communications Biology, 2019)

Protein sequences, listed by entry. Tags and fused reporters are not part of them. Residues count along the entry.
UniProt A0A3Q0KSG2, 21-298 limits assumed: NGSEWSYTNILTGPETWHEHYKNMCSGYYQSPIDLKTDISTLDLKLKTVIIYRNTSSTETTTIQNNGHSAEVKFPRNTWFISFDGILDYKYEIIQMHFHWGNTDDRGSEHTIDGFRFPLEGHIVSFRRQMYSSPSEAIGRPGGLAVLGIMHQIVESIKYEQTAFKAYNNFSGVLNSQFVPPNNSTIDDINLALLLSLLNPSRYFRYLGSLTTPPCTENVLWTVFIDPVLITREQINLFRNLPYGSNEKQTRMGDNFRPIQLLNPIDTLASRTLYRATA

Target: rSmCA (recombinant SmCA, α-carbonic anhydrase) (Schistosoma mansoni, UniProt A0A3Q0KSG2)
Assay: stopped-flow CO2 hydrase assay, inhibition of rSmCA
Assay type: biochemical
Conditions: ratio of Ki values, both human isoforms

O=[As](O)(O)c1ccccc1 [Ph-AsO 3 H 2, phenylarsonic acid]
higher affinity for SmCA versus human isoforms hCA I or hCA II: > 1000 fold
